A mixed list of measured activities; the numbers were collected in NIAID ChemDB.

Common to all: cytotoxicity tests; measure: CC50

Blank or dashed fields: not listed here.

structure	read by	cell line	result
O=[N+]([O-])c1ccc(N2CCN(c3ccc([N+](=O)[O-])cc3)CC2)cc1	-	A549	149.2 µg/mL
CCCCOc1ccc(-c2snc(SC)c2C#N)cc1	-	HEP-2	>50 µM
C=C(C)C1CC[C@]2(C(=O)O)CC[C@]3(C)C(CCC4[C@@]5(C)C[C@@H](C(=O)[O-])[C@H](O)C(C)(C)C5CC[C@]43C)C12	XTT	1A2	15.9 µg/mL
Nc1ccn(C[C@@H](CO)OCP(=O)(O)O)c(=O)n1	-	HS68	50 µg/mL
O=C(NCc1ccccc1)c1ccc(-c2ccc3c(c2)OCO3)cc1	-	RAJI	>20 µM
CCn1c2c(c(=O)c3cc(C(C)C)ccc31)Cc1ccccc1-2	MTT	HELA-OHIO	>10 µg/mL
O=c1[nH]c(=O)n([C@H]2C[C@H](O)[C@@H](CO)O2)cc1/C=C/Br	-	HELF	145 µg/mL
Cc1cc2c(c(C)c1OCC(C)C)c(=O)cc(-c1ccccc1)n2C	MTT	HeLa S3	>4 µg/mL
O=c1[nH]c(=O)n([C@@H]2O[C@H](CO)[C@@H](O)[C@@H]2O)cc1/C=C/Cl	-	HELF	>800 µg/mL
CSc1nsc(-c2ccccn2)c1C#N	-	HEP-2	50 µM
Cc1c(-c2cccs2)n(C)c2ccc(OCC(C)C)c(C)c2c1=O	MTT	HELA-OHIO	>2.5 µg/mL
CCCN([C@H](CO)CCC[C@@H](NC(=O)[C@@H](NC(=O)OC)C(c1ccccc1)c1ccccc1)C(F)(F)F)S(=O)(=O)c1ccc(N)cc1	microscopy	T lymphoid cells	>10 µM
CSc1nsc(-c2ccncc2)c1C#N	-	HEP-2	2.5 µM
Cc1ccc(-n2c(-c3ccccc3)c(C)c(=O)c3cc(C(C)C)ccc32)cc1	MTT	HeLa S3	>2.5 µg/mL
OCC1CCC(c2ccc3ncnc(Nc4ccc(C5CCOCC5)cc4)c3c2)O1	-	Huh7.5+J6/JFH-1	29.3 µM
CSc1nsc(-c2ccc3ccccc3c2)c1C#N	-	L929	20 µM
CCCCCCCCN=C(N)c1ccc(N2CCN(c3ccc(C(N)=NCCCCCCCC)cc3)CC2)cc1	-	A549	2.26 µg/mL
Cn1cc2c3cc(Br)ccc3nc-2c2cc(Cl)ccc21	MTT	3T3	9.005 µM
[N-]=[N+]=N[C@]1(CO)O[C@@H](n2ccc(NCc3ccco3)nc2=O)[C@@H](F)[C@@H]1O	MTT	Hep2.2.15	<2 µM
CCOC(=O)c1c(CS(=O)(=O)c2ccccc2)n(C)c2cc(-c3cccnc3)c(O)c(CN(C)C)c12	ATP	Huh7.3	31 µM
CSc1nsc(SC)c1C#N	-	HEP-2	12 µM
COC(=O)N[C@@H]1[C@H](C)O[C@@H](OC2C/C=C(\C)[C@H]3C=C[C@H]4[C@H](O)[C@H](C)C[C@@H](C)[C@@H]4[C@@]3(C)/C(O)=C3/C(=O)OC4(C[C@H](C)C(CO)=C[C@H]4/C=C\2C)C3=O)C[C@@]1(C)N	MTT	CEM-TART lymphoblastoid cells	>100 µM
CSc1nsc(-c2cccs2)c1C#N	-	HEP-2	6 µM
O=c1[nH]c(=O)n([C@H]2C[C@H](O)[C@@H](CO)O2)cc1I	-	HELF	8 µg/mL
CCn1c(-c2ccccc2)c(C)c(=O)c2cc(OCC(C)C)ccc21	MTT	HELA-OHIO	>4 µg/mL
CC(C)N([C@H](CO)CCCC(C)(C)NC(=O)[C@@H](N)C(c1ccccc1)c1ccccc1)S(=O)(=O)c1ccc(N)cc1	microscopy	T lymphoid cells	>10 µM
O=c1[nH]c(=O)n([C@@H]2O[C@H](COP(=O)(O)O)[C@@H](O)[C@@H]2O)cc1/C=C/Br	-	HELF	>800 µg/mL
CON(C)c1ccn([C@@H]2O[C@@](CO)(N=[N+]=[N-])[C@@H](O)[C@@H]2F)c(=O)n1	MTT	Hep2.2.15	>250 µM
COC(=O)N[C@H](C(=O)N[C@@H](C)CCC[C@@H](CO)N(CCC(C)C)S(=O)(=O)c1ccc(N)cc1)C(c1ccccc1)c1ccccc1	microscopy	T lymphoid cells	>10 µM
CC(=O)c1cc2ccccc2oc1=O	MTT	HTLV-I-bearing MT-4	395.5 µg/mL
CCn1c(-c2cccs2)cc(=O)c2cc(C(C)C)ccc21	MTT	HeLa S3	18 µg/mL
CC[C@H](C)[C@H]1OC(=O)[C@H](C(C)C)N(C)C(=O)[C@@H]([C@@H](C)CC)OC(=O)[C@H](C(C)C)N(C)C(=O)[C@@H]([C@@H](C)CC)OC(=O)[C@H](C(C)C)NC1=O	absorbance	BC-cells	1 µM
COC(=O)N[C@H](C(=O)NC1(CCC[C@@H](CO)N(CCC(C)C)S(=O)(=O)c2ccc(N)cc2)CCCC1)C(c1ccccc1)c1ccccc1	microscopy	T lymphoid cells	>10 µM
CC(=O)Cc1cn([C@H]2C[C@H](O)[C@@H](CO)O2)c(=O)[nH]c1=O	-	HELF	>800 µg/mL
C/C(=N\N=C(N)N)c1cc(NC(=O)CCCCCCCCC(=O)Nc2cc(/C(C)=N/N=C(N)N)cc(/C(C)=N/N=C(N)N)c2)cc(/C(C)=N/N=C(N)N)c1	MTT	PM1	>2 µM
COC(=O)N[C@H](C(=O)NCCC(C)C[C@@H](CO)N(CCC(C)C)S(=O)(=O)c1ccc(C)cc1)C(c1ccccc1)c1ccccc1	microscopy	T lymphoid cells	>10 µM
CCOC(=O)c1c(CS(=O)c2ccccc2)n(C)c2cc(-c3cccnc3)c(O)c(CN(C)C)c12	ATP	Huh7.3	80.5 µM
CCn1c(-c2cccs2)c(C)c(=O)c2cc(C(C)C)ccc21	MTT	HeLa S3	>10 µg/mL
CC[C@@H](CCC[C@@H](CO)N(CCC(C)C)S(=O)(=O)c1ccc(CO)cc1)NC(=O)[C@@H](NC(=O)OC)C(c1ccccc1)c1ccccc1	microscopy	T lymphoid cells	>10 µM
CC/C=C/C1=C(O)c2ccccc2C(=O)C1=O	-	2C4 fibroblasts	>50 µg/mL
NC(=NC1CCCCCCC1)c1ccc(N2CCN(c3ccc(C(N)=NC4CCCCCCC4)cc3)CC2)cc1	-	WI-38	>1.95 µg/mL
CC(C)=CCC1=C(O)c2ccccc2C(=O)C1=O	-	2C4 fibroblasts	10 µg/mL
CCOC(=O)CCCCCOc1cccc(CN(C(=O)c2ccc(-c3ccc(Cl)c(Cl)c3)cc2)C(C)C)c1	-	RAJI	>20 µM
CCC(C)CN=C(N)c1ccc(N2CCN(c3ccc(C(N)=NCC(C)CC)cc3)CC2)cc1	-	WI-38	>0.107 µg/mL
COC(=O)N[C@@H]1[C@H](C)O[C@@H](OC2C/C=C(\C)[C@H]3C=C[C@H]4[C@H](OC5C[C@@H](OC6C[C@@H](O)[C@@H](OC7C[C@@H](O)[C@@H](OC)[C@H](C)O7)[C@H](C)O6)[C@@H](O)[C@H](C)O5)[C@H](C)C[C@@H](C)[C@@H]4[C@@]3(C)/C(O)=C3/C(=O)OC4(C[C@H](C)C(CO)=C[C@H]4/C=C\2C)C3=O)C[C@@]1(C)[N+](=O)[O-]	MTT	CEM-TART lymphoblastoid cells	0.3 µM
N#Cc1coc2ccccc2c1=O	MTT	HTLV-I-bearing MT-4	121.9 µg/mL
COc1nsc(-c2ccccc2)c1C#N	-	HEP-2	25 µM
NC(=NC1CCC1)c1ccc(N2CCN(c3ccc(C(N)=NC4CCC4)cc3)CC2)cc1	-	WI-38	>5.8 µg/mL
Cn1cc2c3cc(Br)ccc3nc-2c2cc(Br)ccc21	MTT	3T3	2.585 µM
CC(C)(C)OC(=O)NCC(OC(=O)C(O)CO)c1ccc2c(c1)OCO2	-	BJ	<7.5 µM
CCCC(=O)OCSc1c(F)cccc1C(=O)NCCC(N)=O	XTT / absorbance	CEM-SS	>6 µM
O=c1ccoc2ccccc12	MTT	HTLV-I-bearing MT-4	146.2 µg/mL
O=C1C(=O)c2ccccc2C(O)=C1/C=C/Cc1ccccc1	-	2C4 fibroblasts	>50 µg/mL
C=C(C)[C@@H]1CC[C@]2(C(=O)O)CC[C@]3(C)[C@H](CC[C@@H]4[C@@]5(C)CC[C@H](O)C(C)(C)[C@@H]5CC[C@]43C)[C@@H]12	XTT	1A2	27.2 µg/mL
CCCCCCN=C(N)c1ccc(N2CCN(c3ccc(C(N)=NCCCCCC)cc3)CC2)cc1	-	A549	>0.409 µg/mL
Cn1cc2c3ccccc3nc-2c2ccccc21	MTT	3T3	2.188 µM
COc1ccc(Nc2ccn([C@@H]3O[C@@](CO)(N=[N+]=[N-])[C@@H](O)[C@@H]3F)c(=O)n2)c(OC)c1	MTT	Hep2.2.15	722 µM
CCOC(=O)c1c(CSc2ccccc2)n(C)c2cc(C#N)c(O)c(CN(N(C)C)N(C)C)c12	ATP	Huh7.3	271.4 µM
CCOC(=O)/C=C1\NCCc2cc3c(cc21)OCO3	-	BJ	<7.5 µM
O=Cc1coc2c(Cl)cc(Cl)cc2c1=O	MTT	HTLV-I-bearing MT-4	87.8 µg/mL
CC(C)c1cc2c(o1)-c1ccccc1C(=O)C2=O	-	2C4 fibroblasts	0.01 µg/mL
COC(=O)N[C@H](C(=O)N[C@@H](C)CCC[C@@H](CO)N(C(C)C)S(=O)(=O)c1ccc(N)cc1)C(c1ccccc1)c1ccccc1	microscopy	T lymphoid cells	>10 µM

CCn is the concentration with n% toxicity to the cells. Conditions beyond the fields shown may differ between rows.